Compound potency records, mixed from different reports. Data source: NIAID ChemDB in PubChem.

All rows: whole-cell or culture tests; organism: HIV-1

Conditions beyond the fields shown may differ between rows. ECn: concentration that inhibits the pathogen or its effect by n%. Two numbers with a dash give a range or band. Blank or dashed fields: not listed here.

structure	method	mutations	measure	cell line	strain or isolate	result
CCc1c(S(=O)(=O)Cc2cccc3ccccc23)cc(C)oc1=O	MTT		EC50	CEM	IIIB	>2 µM
Nc1ncnc2c1ncn2CCOCP(=O)(O)O	RT activity		EC50	C3	LAV	1.9 µM
O=C(NCCc1ccc(O)c(O)c1)c1cc2cc(O)c(O)cc2[nH]1	MTT		EC50	MT-4	IIIB	>153 µM
Cc1cn([C@H]2C[C@@H](O)[C@H](CO)O2)c(=O)[nH]c1=O	syncytia		EC50	CEM	BRU	>1000 µM
CCc1cc(NCc2nc3c(Cl)ccc(Cl)c3o2)c(=O)[nH]c1C	p24	RT-M41L T215Y/F	EC50	PBMC	Clinical isolate (RT M41L T215Y/F)	<0.05 µM
Cc1cn([C@H]2C[C@H](N=[N+]=[N-])[C@@H](CO)O2)c(=O)[nH]c1=O	p24		EC90	MT-2	MN	0.1 µM
Cc1cn([C@@H]2C[C@@H](N=[N+]=[N-])[C@H](COP(N)(=O)OC[C@H]3O[C@@H](n4cc(C)c(=O)[nH]c4=O)C[C@@H]3N=[N+]=[N-])O2)c(=O)[nH]c1=O	RT activity		EC50	CEM + CEM TK-	LAI	>100 µM
Nc1ccn([C@H]2CC[C@@H](CO)O2)c(=O)n1	cytopathic effect / XTT		EC50	CEM + CEM-SS	IIIB	0.028 µM
CC(C)c1nc(CN(C)C(=O)N[C@H](C(=O)N[C@@H](Cc2ccccc2)C[C@H](O)[C@H](Cc2ccccc2)NC(=O)OCc2cncs2)C(C)C)cs1	cytopathic effect / MTT		EC50	MT-4	NL4-3	0.067 µg/mL
CC(C)c1nc(CN(C)C(=O)N[C@H](C(=O)N[C@@H](Cc2ccccc2)C[C@H](O)[C@H](Cc2ccccc2)NC(=O)OCc2cncs2)C(C)C)cs1	cytopathic effect / MTT		EC50	MT-4	NL4-3 B	0.047 µM
O=c1[nH]cnc2c1ncn2[C@H]1CC[C@@H](CO)O1	p24 / ELISA	RT-L74V	EC50	PBMC	HXB2D (RT-L74V)	29 µM
COC(=O)[C@H](C)NP(=O)(OC[C@@H]1CC[C@H](n2cnc3c(N)ncnc32)O1)Oc1ccccc1	syncytia		EC50	CEM	IIIB	0.016 µM
Cc1ccc(-c2c3nc(c(-c4ccc(C)cc4)c4ccc([nH]4)c(-c4ccc(C)cc4)c4nc(c(-c5ccc(C)cc5)c5ccc2[nH]5)C=C4)C=C3)cc1	RT activity		EC50	PBMC	LAV	0.754–10 µM
Nc1nc2c(ncn2[C@@H]2O[C@@H](CO)[C@H](O)[C@H]2O)c(=O)[nH]1	cytopathic effect / MTT		EC50	MT-4	IIIB	>100 µM
COC(=O)[C@H](C)NP(=O)(OC[C@@H]1C=C[C@H](n2cc(C)c(=O)[nH]c2=O)O1)Oc1ccccc1	syncytia		EC50	CEM	IIIB	0.07 µM
Cc1cccc(-c2c3nc(c(-c4cccc(C)c4)c4ccc([nH]4)c(-c4cccc(C)c4)c4nc(c(-c5cccc(C)c5)c5ccc2[nH]5)C=C4)C=C3)c1	RT activity		EC50	PBMC	LAV	0.05–10 µM
Cc1cn([C@H]2C[C@H](N=[N+]=[N-])[C@@H](CO)O2)c(=O)[nH]c1=O	p24		EC50	PBMC	HXB2	<0.005 µg/mL
CC(C)c1cc2c(c(O)c1O)[C@@]1(C(=O)O)CCCC(C)(C)C1CC2		PR-L10I I15V E35D N37E K45R I54V L63P A71V V82T L90M I93L C95F	EC50	PBMC	clinical isolate 1(A MDR X4)	>1 µM
O=C(O)CSc1ccc2c(c1)c(=O)c1ccccc1n2C1CC1			EC50	PBMC	LAV	>100 µM
O=C(N[C@H]1c2ccccc2OC[C@H]1O)[C@H](Cc1nnc(-c2ccccc2)o1)C[C@H](O)CN1CCN(Cc2ccc(-c3ccc(Cl)cc3)o2)C[C@H]1C(=O)NCC(F)(F)F	p24	PR-L10I M46I I54V Q58E L63P I64V V77I V82F I84V L90M I93L	EC95	MT-4	K-60 Clinical isolate	≤0.008 µM
Cc1cc(N[C@H](C)c2cccc3ccccc23)cc(=O)o1	MTT		EC50	CEM	IIIB	>10 µM
Cn1c(C(OC(C)(C)C)C(=O)O)c(-c2cccc(F)c2F)c2ccccc2c1=O	luciferase		EC50	MT-4		2.55 µM
Cc1cc(N(Cc2cccc3ccccc23)C(=O)C(Cl)Cl)cc(=O)o1	MTT		EC50	CEM	IIIB	≥10 µM
OC(CNCC1CCCO1)Cn1c2ccc(Br)cc2c2cc(Br)ccc21	luciferase / luminescence		EC50	MT-2	NL4-3	3.2 µM
COC(=O)N[C@H](C(=O)N[C@@H](Cc1ccccc1)[C@@H](O)CN(Cc1ccc(-c2ccccn2)cc1)NC(=O)[C@@H](NC(=O)OC)C(C)(C)C)C(C)(C)C	RT activity		EC50	MT-2	LAI	0.0007 µM
Cc1cn([C@H]2C[C@H](N=[N+]=[N-])[C@@H](CO)O2)c(=O)[nH]c1=O	cytopathic effect / MTT		EC50	MT-4		0.0011 µM
CC(C)(C)NC(=O)[C@@H]1C[C@@H]2CCCC[C@@H]2CN1C[C@@H](O)[C@H](Cc1ccccc1)NC(=O)[C@H](CC(N)=O)NC(=O)c1ccc2ccccc2n1	RT activity		EC50	MT-2	LAI	0.005 µM
Cc1cn([C@H]2C[C@H](N=[N+]=[N-])[C@@H](CO)O2)c(=O)[nH]c1=O			EC50	PBMC	LAI	0.008 µM
Cc1cn([C@H]2C=C[C@@H](CO)O2)c(=O)[nH]c1=O	RT activity		EC50	MT-2	LAI	0.072 µM
Cc1ccnc2c1NC(=O)c1cccnc1N2C1CC1		RT-D67N K70R T215Y K219Q A98G	EC95	MT-4		0.4 µM
C[C@H]1CN2CCC[C@H]3CCCCC[C@@H]4C(=O)[C@@H](C)CN5CCC[C@@H](CCCCC[C@H](C1=O)[C@@H]32)[C@H]45	p24		EC50	MT-2	MN	41.3 µM
CCO/N=C(\c1ccc(Br)cc1)C1CCN(C2(C)CCN(C(=O)c3c(C)cc[n+]([O-])c3C)CC2)CC1	p24		EC50	PM1	BaL	0.0009 µM
Cc1cn([C@H]2C[C@H](N=[N+]=[N-])[C@@H](CO)O2)c(=O)[nH]c1=O	syncytia	RT-M41L D67N K70R L210W T215Y	EC50	HT4 + HeLa	G704-2 Clinical isolate ZDV-resistant	5.7 µM
CCOc1ccc(Cc2c3cc(OCC)c(OCC)cc3cc[n+]2C)cc1OCC	p24		EC50	H9	IIIB	>17.1 µg/mL
CC(C)(c1ncc(-c2ccc(Cl)cc2)o1)N1CCN(C[C@@H](O)C[C@@H](Cc2nnco2)C(=O)N[C@H]2c3ccccc3OC[C@H]2O)[C@H](C(=O)NCC(F)(F)F)C1	p24		EC95	MT-4	NL4-3 WT	0.125 µM
Nc1nc(NC2CC2)c2ncn([C@H]3C=C[C@@H](CO)C3)c2n1	RT activity		EC50	MT-2	LAI	0.326 µM
Cc1c2cc(OCc3ccccc3)c(OCc3ccccc3)cc2cc[n+]1C	p24		EC50	H9	IIIB	>0.171 µg/mL
Nc1nc2c(ncn2[C@H]2C[C@@H](O)[C@H](CO)O2)c(=O)[nH]1	syncytia		EC50	CEM	BRU	>100 µM
Cc1cc(NCCc2c[nH]c3ccccc23)c(C(=O)C(Cl)Cl)c(=O)o1	MTT		EC50	CEM	IIIB	≥2 µM
Nc1nc2c(ncn2COCCO)c(=O)[nH]1	GFP	M184V	EC50	PHA-activated CD4+ lymphoblasts	CXCR4-tropic HIV pseudovirus	50 µM
Cc1cc(NCc2ccccc2)c(C(=O)C(Cl)Cl)c(=O)o1	MTT		EC50	CEM	IIIB	>2 µM
O=c1ccn([C@@H]2O[C@@H](CO)[C@H](O)[C@H]2O)c(=O)[nH]1	syncytia		EC50	CEM	BRU	500 µM
Cc1ccnc2c1NC(=O)c1cccnc1N2C1CC1	cytopathic effect / MTS		EC50	MT-2	LAI	0.017 µM
CCN(CC)CCNc1cc(-c2cccs2)nc2ccccc12	luciferase / luminescence		EC50	MT-2	NL4-3	6.1 µM
O=C(NCCc1c[nH]c2ccccc12)C1=Cc2ccncc2CC1	cytopathic effect / MTT		EC50	CEM + CEM-SS	RF	>51 µM
CC(C)(C)NC(=O)[C@@H]1CN(Cc2cccnc2)CCN1C[C@@H](O)C[C@@H](Cc1ccccc1)C(=O)N[C@H]1c2ccccc2C[C@H]1O	cytopathic effect / MTT		EC50	MT-4	NL4-3 PR S12T I15V I19L M36I R41K H69K L89M CLONE 5( C )	0.0066 µM
Cc1nnc(C[C@H](C[C@H](O)CN2CCN(C(C)(C)c3ncc(-c4ccc(Cl)cc4)o3)C[C@H]2C(=O)NCC(F)(F)F)C(=O)N[C@H]2c3ccccc3OC[C@H]2O)o1	p24	PR-L10I M46I I54V Q58E L63P I64V V77I V82F I84V L90M I93L	EC50	MT-4	K-60 Clinical isolate	<0.031 µM
Cc1cn([C@H]2C[C@H](N=[N+]=[N-])[C@@H](CO)O2)c(=O)[nH]c1=O	RT activity		EC90	C3	LAV	0.33 µM
COc1ccc(C(C)c2c3cc(OC)c(OC)cc3cc[n+]2C)cc1OC	p24		EC50	H9	IIIB	>100 µg/mL
Nc1cccc(CN2C(=O)N(Cc3ccc4[nH]nc(-c5ccsc5)c4c3)[C@H](Cc3ccccc3)[C@H](O)[C@@H](O)[C@H]2Cc2ccccc2)c1		PR-M46I L63P A71V V82F I84V	EC90	MT-2	Ritonavir-resistant (PR M46I L63P A71V V82F I84V)	>5 µM
Cc1cn([C@H]2C=C[C@@H](CO)O2)c(=O)[nH]c1=O	p24		EC90	PBMC	IIIB	1.47 µM
Nc1c(S(=O)(=O)c2ccc(Cl)cc2)cc2c(=O)n3ccccc3nc2[n+]1C1CCCCC1	luciferase / luminescence		EC50	MT-2	NL4-3	10.2 µM
c1cc(CN2CCCNCCNCCCNCC2)ccc1CN1CCCNCCNCCCNCC1	RT activity		EC50	MT-2	LAI	0.005 µM
O=C(N[C@H]1c2ccccc2OC[C@H]1O)[C@H](Cc1nnco1)C[C@H](O)CN1CCN(Cc2ccc(-c3ccc(Cl)cc3)o2)C[C@H]1C(=O)NCC(F)(F)F	p24		EC50	MT-4	NL4-3 WT	<0.063 µM
CCc1c(OCc2cccc3ccccc23)cc(C)oc1=O	MTT		EC50	CEM	IIIB	>0.4 µM
O=C(NCc1ccc(F)cc1)c1nc(N2CCCCS2(=O)=O)c2cccnc2c1O	p24		EC50	H9	IIIB	<0.015 µM
Cc1nnc(C[C@H](C[C@H](O)CN2CCN(Cc3ccc(-c4ccc(Cl)cc4)o3)C[C@H]2C(=O)NCC(F)(F)F)C(=O)N[C@H]2c3ccccc3OC[C@H]2O)o1	p24	PR-L10I M46I I54V Q58E L63P I64V V77I V82F I84V L90M I93L	EC50	MT-4	K-60 Clinical isolate	<0.031 µM
Cc1cn([C@H]2C[C@H](N=[N+]=[N-])[C@@H](CO)O2)c(=O)[nH]c1=O	cytopathic effect / XTT		EC50	PBMC	ROJO	0.004 µM
Nc1ncnc2c1ncn2CCOCP(=O)(O)O			EC50	PBMC	LAI	0.43 µM
CC(C)(c1ncc(-c2ccc(F)cc2)o1)N1CCN(C[C@@H](O)C[C@@H](Cc2nnc(-c3ccccc3)o2)C(=O)N[C@H]2c3ccccc3OC[C@H]2O)[C@H](C(=O)NCC(F)(F)F)C1	p24	PR-L10I M46I I54V Q58E L63P I64V V77I V82F I84V L90M I93L	EC95	MT-4	K-60 Clinical isolate	≤0.008 µM
COc1cc(Cc2cnc([NH][Sn]([CH3])([CH3])[NH]c3ncc(Cc4cc(OC)c(OC)c(OC)c4)c(N)n3)nc2N)cc(OC)c1OC	p24 / ELISA		EC50	Jurkat cells		0.003 µM
Cc1nc2cc(Nc3ccccc3C(=O)O)ccc2s1			EC50	PBMC	LAV	>26.04 µM
Cc1cc(N[C@H](C)c2cccc3ccccc23)c(C(=O)C(Cl)Cl)c(=O)o1	MTT		EC50	CEM	IIIB	>10 µM
CN1CC[C@H](c2c(O)cc(O)c3c(=O)cc(-c4ccccc4Cl)oc23)[C@H](O)C1	p24		EC50	PM1	IIIB	<0.012 µM
Cc1c(Sc2ccccc2)n(COCCO)c(=O)[nH]c1=O	cytopathic effect / MTT		EC50	MT-4	IIIB	7 µM
Cc1cn([C@H]2C[C@H](N=[N+]=[N-])[C@@H](CO)O2)c(=O)[nH]c1=O	syncytia		EC50	CEM	IIIB	0.002 µM
CC(C)(C)NC(=O)[C@@H]1CN(Cc2cccnc2)CCN1C[C@@H](O)C[C@@H](Cc1ccccc1)C(=O)N[C@H]1c2ccccc2C[C@H]1O	RT activity		EC50	MT-2	LAI	0.003 µM
COc1cc(CO)c(Cc2c3cc(OC)c(OC)cc3cc[n+]2C)cc1OC	p24		EC50	H9	IIIB	>100 µg/mL
Nc1ccn([C@H]2CC[C@@H](CO)O2)c(=O)n1	syncytia		EC50	CEM	IIIB	0.04 µM
CC(=O)N[C@@H](CS)C(=O)O	RT activity		EC50	U1 (HIV-1 LAV IL-6 stimulated) + U1	LAV	<15000 µM
Fc1cccc(F)c1C1SCc2nc3ccccc3n21	cytopathic effect	RT-E138K	EC50	CEM		1.73 µM
O=C(NCCCN1CCN(CCCNC(=O)c2cc3cc(O)c(O)cc3[nH]2)CC1)c1cc2cc(O)c(O)cc2[nH]1	MTT		EC50	MT-4	IIIB	>176 µM
CCOc1ccc(Cc2c3cc(OCC)c(OCC)cc3cc(C)[n+]2C)cc1OCC	p24		EC50	H9	IIIB	>13 µg/mL